# Test results taken from PubChem BioAssay AID743093 (The Scripps Research Institute Molecular Screening Center, 2013).
# The list shows a part of the results, in another mix than the full data. Active and inactive are the calls of the source.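 How the source made its calls: active means inhibition above the mean plus 3 SD of compounds within the control limits, set per campaign (cut at about 38% in these data); inactive means the rest.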
# Assay: reduced ATP in mature Plasmodium gametocytes – ATP luminescence, HTS, primary screen (AID 743093);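 further: 0% = DMSO wells and 100% = medium only without gametocytes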
# Settings: P. falciparum stage V gametocytes, 24 h, at 10.9 µM, stronger effect = higher value
row,Compound,inhibition
1,O=[N+]([O-])c1cc([N+](=O)[O-])c(-n2nnc3ccccc32)c([N+](=O)[O-])c1,inactive: 9.64%
2,O=[N+]([O-])c1cc([N+](=O)[O-])c(-c2cnn(-c3ccccc3)c2)c([N+](=O)[O-])c1,inactive: -18%
3,CCOC(=O)C(CC)C1=NC(C)(C)Cc2ccccc21.O=[N+]([O-])c1cc([N+](=O)[O-])c(O)c([N+](=O)[O-])c1 (stereo not given),inactive: 24.2%
4,CCCOc1ccc(NP(C)(=O)Oc2ccc(Cl)cc2)cc1 (stereo not given),inactive: -20.7%
5,CN1CCCCC1COC(=O)C1(O)c2ccccc2CCc2ccccc21 (stereo not given),inactive: -3.74%
6,O=C(O)c1cccc(Nc2c([N+](=O)[O-])cc([N+](=O)[O-])cc2[N+](=O)[O-])c1,inactive: 21.2%
7,CCOC(=O)c1ccc(NP(C)(=O)Oc2cc(C)cc(C)c2)cc1 (stereo not given),inactive: 22%
8,Cc1cc(C)cc(OP(C)(=O)Nc2ccc(C)cc2C)c1 (stereo not given),inactive: -3.84%
9,COc1ccccc1OP(C)(=O)Nc1cccc(Br)c1 (stereo not given),inactive: 2.35%
10,Cc1ccc(C)c(NP(C)(=O)Oc2ccccc2)c1 (stereo not given),inactive: 8.86%
11,CCN(CC)CCCOC(=O)C(O)(c1ccccc1)c1ccccc1,inactive: 1.46%
12,O=[N+]([O-])c1ccc2c(c1)C=Nc1ccccc1O2,inactive: -12.2%
13,CC(C)(C)c1ccc(OP(C)(=O)Nc2ccc(SC(F)(F)F)cc2)cc1 (stereo not given),inactive: -4.25%
14,Cc1cccc(C)c1OP(C)(N)=O (stereo not given),inactive: 13.8%
15,Cc1cc(C)cc(OP(C)(N)=O)c1 (stereo not given),inactive: -10.7%
16,COc1ccccc1OP(C)(=O)Nc1cc(Cl)ccc1C (stereo not given),inactive: -7.79%
17,COc1ccc(OP(C)(=O)Nc2cccc(F)c2)cc1 (stereo not given),inactive: 23.3%
18,CCOC(=O)c1ccc(NP(C)(=O)Oc2ccccc2)cc1 (stereo not given),inactive: 7.69%
19,CP(=O)(Nc1ccccc1Br)Oc1ccccc1 (stereo not given),inactive: 14.7%
20,COc1ccccc1OP(C)(=O)Nc1ccccc1 (stereo not given),inactive: -8.86%

row,Compound,inhibition
1,CP(=S)(Nn1cnnc1)Oc1ccccc1 (stereo not given),inactive: -8.6%
2,CCc1ccc(OP(C)(=O)N2CCN(c3ccc([N+](=O)[O-])cc3)CC2)cc1 (stereo not given),inactive: -17.8%
3,CP(=O)(NC(=O)Nc1ccccc1)Oc1ccccc1 (stereo not given),inactive: 8.03%
4,Cc1cc(C)cc(OP(C)(=O)Nc2ccc(SC(F)(F)F)cc2)c1 (stereo not given),inactive: -11.8%
5,CP(=O)(Nc1ccc(SC(F)(F)F)cc1)Oc1ccc(Cl)cc1 (stereo not given),inactive: 10.8%
6,Cc1cccc(C)c1OP(C)(=O)Nc1ccc(SC(F)(F)F)cc1 (stereo not given),inactive: 19%
7,O=[N+]([O-])c1cc([N+](=O)[O-])c(O)c([N+](=O)[O-])c1.c1ccc(Oc2ccncc2)cc1,inactive: -11%
8,CCOC(=O)c1ccc(NP(C)(=O)Oc2ccc(OC)cc2)cc1 (stereo not given),inactive: -24.1%
9,CCOP(C)(=S)SCC(=O)NC(C)C(=O)O (stereo not given),inactive: 13.6%
10,O=C(OCCCN1CCCC1)C(O)(c1ccccc1)C1CCCCC1 (stereo not given),inactive: -1.91%
11,CP(=O)(Oc1ccccc1)N1CCOC1=O (stereo not given),inactive: -4.25%
12,CCc1ccc(OP(C)(=O)Nc2cccnc2)cc1 (stereo not given),inactive: 11.9%
13,CN(C)C(=O)c1c([N+](=O)[O-])cc([N+](=O)[O-])cc1[N+](=O)[O-],inactive: 0.02%
14,CC(C)(C)c1ccc(OP(C)(=O)O)cc1,inactive: -4.17%
15,COc1ccccc1OP(C)(=O)Nc1ccccc1Br (stereo not given),inactive: 9.5%
16,CCOC(=O)c1ccc(NP(C)(=O)Oc2ccc(Cl)cc2)cc1 (stereo not given),inactive: 4.34%
17,Nc1ccc2c(ccc3cccnc32)n1.O=[N+]([O-])c1cc([N+](=O)[O-])c(O)c([N+](=O)[O-])c1,inactive: -2.97%
18,COc1ccc(OP(C)(=O)Nc2ccccc2Br)cc1 (stereo not given),inactive: 20.4%
19,Cc1cc(C)cc(OP(C)(=O)Nc2cccc(C(F)(F)F)c2)c1 (stereo not given),inactive: 0.06%
20,CP(=O)(OCCOc1ccccc1)OCCOc1ccccc1,inactive: -9.6%

row,Compound,inhibition
1,COc1ccccc1OP(C)(=O)Nc1ccc(Br)cc1 (stereo not given),inactive: 22.9%
2,CP(=O)(Nc1ccccn1)Oc1ccccc1 (stereo not given),inactive: 5.51%
3,O=[N+]([O-])c1cc([N+](=O)[O-])c(Nc2ccccn2)c([N+](=O)[O-])c1,inactive: 9.42%
4,Cc1c(NP(C)(=O)Oc2ccc(C(C)C)cc2)c(=O)n(-c2ccccc2)n1C (stereo not given),inactive: 6.84%
5,CP(=O)(Nc1ccccc1F)Oc1ccccc1 (stereo not given),inactive: -16%
6,CC(C)c1ccc(OP(C)(=O)Nc2ccc(SC(F)(F)F)cc2)cc1 (stereo not given),inactive: 5.97%
7,O=C(OC1CN2CCC1CC2)c1ccc([N+](=O)[O-])cc1 (stereo not given),inactive: 1.28%
8,O=C(OCCN1CCN(CCOCc2ccccc2)CC1)C(O)(c1ccccc1)c1ccccc1,inactive: 1.14%
9,CCOC(=O)c1ccc(NP(C)(=O)Oc2ccc(F)cc2)cc1 (stereo not given),inactive: 19.5%
10,COc1ccc(OP(C)(=O)Nc2ccc(SC(F)(F)F)cc2)cc1 (stereo not given),inactive: 7.29%
11,O=[N+]([O-])c1cc([N+](=O)[O-])c(OC2CCCCC2O)c([N+](=O)[O-])c1 (stereo not given),inactive: 2.38%
12,CCCCCOc1ccc(NP(C)(=O)Oc2ccc(Cl)cc2Cl)cc1 (stereo not given),inactive: -2.99%
13,CCN(CC)CCCOC(=O)C(O)(c1ccccc1)C1CCCCC1 (stereo not given),inactive: -1.8%
14,COc1ccc(NP(C)(=O)Oc2ccccc2OC)cc1 (stereo not given),inactive: -7.81%
15,Cc1c(C(c2ccc3c(c2)OCO3)c2c(C)n(C)n(-c3ccccc3)c2=O)c(=O)n(-c2ccccc2)n1C.O=[N+]([O-])c1cc([N+](=O)[O-])c(O)c([N+](=O)[O-])c1,inactive: 12.7%
16,Cc1cc(-c2cccc3ccccc23)c(C)cn1.O=[N+]([O-])c1cc([N+](=O)[O-])c(O)c([N+](=O)[O-])c1,inactive: -5.46%
17,O=[N+]([O-])c1cc([N+](=O)[O-])c(NCC2CCS(=O)(=O)C2)c([N+](=O)[O-])c1 (stereo not given),inactive: 12.9%
18,CP(=O)(Nc1ccc(SC(F)(F)F)cc1)Oc1ccc(F)cc1 (stereo not given),inactive: 26.2%
19,Cc1ccccc1NP(C)(=O)Nc1ccccc1C,inactive: 2.38%
20,CP(=O)(Nc1ccc2c(c1)OCCO2)Oc1ccccc1 (stereo not given),inactive: 16.2%
